Series [1] concerns the target T1, Rv0081 (Mycobacterium tuberculosis) (UniProt P9WMI7).
T1 sequence (looked up, limits assumed): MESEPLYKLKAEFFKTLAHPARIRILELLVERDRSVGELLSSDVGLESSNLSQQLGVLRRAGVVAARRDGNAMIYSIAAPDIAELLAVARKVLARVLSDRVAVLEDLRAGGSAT
Nature of the series: EMSA. The following applies: 6 mM Mg2+, poly-dIdC. Background: In EMSA bound probe runs differently from free probe, usually more slowly.

Series [2] concerns the target T1, Rv0081 (Mycobacterium tuberculosis). Nature of the series: competition with a labelled probe. The conditions noted are these: 50x unlabelled vs ds-Wt-Biot.

Data on 2 sequences can be found in paper doi:10.1101/465575 (bioRxiv, 2018).

The exact form of at least one protein or probe is not confirmed. Protein sequences can lack the tags named with them.

For the sequence “ATCCGCACTATCTGATAAATTCTTCAACTCGTC (double strand) [ds-Wt]”, in series [1], the binding result is listed as “binds”. With “ATCCGCACTATCTGATAAATTCTTCAACTCGTC (double strand) [ds-Wt unlabelled competitor]”, the binding result in series [2] is given as “binds”.
